Test results from article PMC9104152, “Phosphoproteomics Unravel HBV Triggered Rewiring of Host Phosphosignaling Events” (International Journal of Molecular Sciences, 2022).

System: HepG2-NTCP cells
Test: TMT-based phosphoproteome profiling of HBV-infected vs mock HepG2-NTCP (HBV/mock ratio)
Set-up: species or system human
Details: sheet Up-regulated, HBV-infected vs mock HepG2-NTCP
[1] = phosphosites of host proteins deregulated at 7dpi
[2] = phosphosite abundance ratio of host protein, 7dpi

Row | Molecule | HBV/mock [1] | HBV/mock [2]
1 | P45974 1xPhospho [T623(100)] (protein, UniProt P45974 2-858, looked up, phosphorylated T623) Ubiquitin carboxyl-terminal …: AELSEEALLSVLPTIRVPKAGDRVHKDECAFSFDTPESEGGLYICMNTFLGFGKQYVERHFNKTGQRVYLHLRRTRRPKEEDPATGTGDPPRKKPTRLAIGVEGGFDLSEEKFELDEDVKIVILPDYLEIARDGLGGLPDIVRDRVTSAVEALLSADSASRKQEVQAWDGEVRQVSKHAFSLKQLDNPARIPPCGWKCSKCDMRENLWLNLTDGSILCGRRYFDGSGGNNHAVEHYRETGYPLAVKLGTITPDGADVYSYDEDDMVLDPSLAEHLSHFGIDMLKMQKTDKTMTELEIDMNQRIGEWELIQESGVPLKPLFGPGYTGIRNLGNSCYLNSVVQVLFSIPDFQRKYVDKLEKIFQNAPTDPTQDFSTQVAKLGHGLLSGEYSKPVPESGDGERVPEQKEVQDGIAPRMFKALIGKGHPEFSTNRQQDAQEFFLHLINMVERNCRSSENPNEVFRFLVEEKIKCLATEKVKYTQRVDYIMQLPVPMDAALNKEELLEYEEKKRQAEEEKMALPELVRAQVPFSSCLEAYGAPEQVDDFWSTALQAKSVAVKTTRFASFPDYLVIQIKKFTFGLDWVPKKLDVSIEMPEELDISQLRGTGLQPGEEELPDIAPPLVTPDEPKGSLGFYGNEDEDSFCSPHFSSPTSPMLDESVIIQLVEMGFPMDACRKAVYYTGNSGAEAAMNWVMSHMDDPDFANPLILPGSSGPGSTSAAADPPPEDCVTTIVSMGFSRDQALKALRATNNSLERAVDWIFSHIDDLDAEAAMDISEGRSAADSISESVPVGPKVRDGPGKYQLFAFISHMGTSTMCGHYVCHIKKEGRWVIYNDQKVCASEKPPKDLGYIYFYQRVAS | 1.3001 | 
2 | P25705 (protein, UniProt P25705 1-553, looked up, full-length) MLSVRVAAAVVRALPRRAGLVSRNALGSSFIAARNFHASNTHLQKTGTAEMSSILEERILGADTSVDLEETGRVLSIGDGIARVHGLRNVQAEEMVEFSSGLKGMSLNLEPDNVGVVVFGNDKLIKEGDIVKRTGAIVDVPVGEELLGRVVDALGNAIDGKGPIGSKTRRRVGLKAPGIIPRISVREPMQTGIKAVDSLVPIGRGQRELIIGDRQTGKTSIAIDTIINQKRFNDGSDEKKKLYCIYVAIGQKRSTVAQLVKRLTDADAMKYTIVVSATASDAAPLQYLAPYSGCSMGEYFRDNGKHALIIYDDLSKQAVAYRQMSLLLRRPPGREAYPGDVFYLHSRLLERAAKMNDAFGGGSLTALPVIETQAGDVSAYIPTNVISITDGQIFLETELFYKGIRPAINVGLSVSRVGSAAQTRAMKQVAGTMKLELAQYREVAAFAQFGSDLDAATQQLLSRGVRLTELLKQGQYSPMAIEEQVAVIYAGVRGYLDKLEPSKITKFENAFLSHVVSQHQALLGTIRADGKISEQSDAKLKEIVTNFLAGFEA |  | 1.314
3 | O75152 1xPhospho [S108(100)] (protein, UniProt O75152 1-810, looked up, phospho S108) Zinc finger CCCH …: MPNQGEDCYFFFYSTCTKGDSCPFRHCEAAIGNETVCTLWQEGRCFRQVCRFRHMEIDKKRSEIPCYWENQPTGCQKLNCAFHHNRGRYVDGLFLPPSKTVLPTVPESPEEEVKASQLSVQQNKLSVQSNPSPQLRSVMKVESSENVPSPTHPPVVINAADDDEDDDDQFSEEGDETKTPTLQPTPEVHNGLRVTSVRKPAVNIKQGECLNFGIKTLEEIKSKKMKEKSKKQGEGSSGVSSLLLHPEPVPGPEKENVRTVVRTVTLSTKQGEEPLVRLSLTERLGKRKFSAGGDSDPPLKRSLAQRLGKKVEAPETNIDKTPKKAQVSKSLKERLGMSADPDNEDATDKVNKVGEIHVKTLEEILLERASQKRGELQTKLKTEGPSKTDDSTSGARSSSTIRIKTFSEVLAEKKHRQQEAERQKSKKDTTCIKLKIDSEIKKTVVLPPIVASRGQSEEPAGKTKSMQEVHIKTLEEIKLEKALRVQQSSESSTSSPSQHEATPGARRLLRITKRTGMKEEKNLQEGNEVDSQSSIRTEAKEASGETTGVDITKIQVKRCETMREKHMQKQQEREKSVLTPLRGDVASCNTQVAEKPVLTAVPGITRHLTKRLPTKSSQKVEVETSGIGDSLLNVKCAAQTLEKRGKAKPKVNVKPSVVKVVSSPKLAPKRKAVEMHAAVIAAVKPLSSSSVLQEPPAKKAAVAVVPLVSEDKSVTVPEAENPRDSLVLPPTQSSSDSSPPEVSGPSSSQMSMKTRRLSSASTGKPPLSVEDDFEKLIWEISGGKLEAEIDLDPGKDEDDLLLELSEMIDS | 1.451 | 
4 | P42224 1xPhospho [S727(100)] (protein, UniProt P42224 2-750, looked up, phosphorylated S727) Signal transducer and …: SQWYELQQLDSKFLEQVHQLYDDSFPMEIRQYLAQWLEKQDWEHAANDVSFATIRFHDLLSQLDDQYSRFSLENNFLLQHNIRKSKRNLQDNFQEDPIQMSMIIYSCLKEERKILENAQRFNQAQSGNIQSTVMLDKQKELDSKVRNVKDKVMCIEHEIKSLEDLQDEYDFKCKTLQNREHETNGVAKSDQKQEQLLLKKMYLMLDNKRKEVVHKIIELLNVTELTQNALINDELVEWKRRQQSACIGGPPNACLDQLQNWFTIVAESLQQVRQQLKKLEELEQKYTYEHDPITKNKQVLWDRTFSLFQQLIQSSFVVERQPCMPTHPQRPLVLKTGVQFTVKLRLLVKLQELNYNLKVKVLFDKDVNERNTVKGFRKFNILGTHTKVMNMEESTNGSLAAEFRHLQLKEQKNAGTRTNEGPLIVTEELHSLSFETQLCQPGLVIDLETTSLPVVVISNVSQLPSGWASILWYNMLVAEPRNLSFFLTPPCARWAQLSEVLSWQFSSVTKRGLNVDQLNMLGEKLLGPNASPDGLIPWTRFCKENINDKNFPFWLWIESILELIKKHLLPLWNDGCIMGFISKERERALLKDQQPGTFLLRFSESSREGAITFTWVERSQNGGEPDFHAVEPYTKKELSAVTFPDIIRNYKVMAAENIPENPLKYLYPNIDKDHAFGKYYSRPKEAPEPMELDGPKGTGYIKTELISVSEVHPSRLQTTDNLLPMSPEEFDEVSRIVGSVEFDSMMNTV | 1.305 | 
5 | P54253 1xPhospho [S775(100)] (protein, UniProt P54253 1-815, looked up, phosphorylated S775) Ataxin-1: MKSNQERSNECLPPKKREIPATSRSSEEKAPTLPSDNHRVEGTAWLPGNPGGRGHGGGRHGPAGTSVELGLQQGIGLHKALSTGLDYSPPSAPRSVPVATTLPAAYATPQPGTPVSPVQYAHLPHTFQFIGSSQYSGTYASFIPSQLIPPTANPVTSAVASAAGATTPSQRSQLEAYSTLLANMGSLSQTPGHKAEQQQQQQQQQQQQHQHQQQQQQQQQQQQQQHLSRAPGLITPGSPPPAQQNQYVHISSSPQNTGRTASPPAIPVHLHPHQTMIPHTLTLGPPSQVVMQYADSGSHFVPREATKKAESSRLQQAIQAKEVLNGEMEKSRRYGAPSSADLGLGKAGGKSVPHPYESRHVVVHPSPSDYSSRDPSGVRASVMVLPNSNTPAADLEVQQATHREASPSTLNDKSGLHLGKPGHRSYALSPHTVIQTTHSASEPLPVGLPATAFYAGTQPPVIGYLSGQQQAITYAGSLPQHLVIPGTQPLLIPVGSTDMEASGAAPAIVTSSPQFAAVPHTFVTTALPKSENFNPEALVTQAAYPAMVQAQIHLPVVQSVASPAAAPPTLPPYFMKGSIIQLANGELKKVEDLKTEDFIQSAEISNDLKIDSSTVERIEDSHSPGVAVIQFAVGEHRAQVSVEVLVEYPFFVFGQGWSSCCPERTSQLFDLPCSKLSVGDVCISLTLKNLKNGSVKKGQPVDPASVLLKHSKADGLAGSRHRYAEQENGINQGSAQMLSENGELKFPEKMGLPAAPFLTKIEPSKPAATRKRRWSAPESRKLEKSEDEPPLTLPKPSLIPQEVKICIEGRSNVGK |  | 1.71
6 | Q86VP6 1xPhospho [T/S] (protein, UniProt Q86VP6 2-1230, looked up, phosphorylated) Cullin-associated …: ASASYHISNLLEKMTSSDKDFRFMATNDLMTELQKDSIKLDDDSERKVVKMILKLLEDKNGEVQNLAVKCLGPLVSKVKEYQVETIVDTLCTNMLSDKEQLRDISSIGLKTVIGELPPASSGSALAANVCKKITGRLTSAIAKQEDVSVQLEALDIMADMLSRQGGLLVNFHPSILTCLLPQLTSPRLAVRKRTIIALGHLVMSCGNIVFVDLIEHLLSELSKNDSMSTTRTYIQCIAAISRQAGHRIGEYLEKIIPLVVKFCNVDDDELREYCIQAFESFVRRCPKEVYPHVSTIINICLKYLTYDPNYNYDDEDEDENAMDADGGDDDDQGSDDEYSDDDDMSWKVRRAAAKCLDAVVSTRHEMLPEFYKTVSPALISRFKEREENVKADVFHAYLSLLKQTRPVQSWLCDPDAMEQGETPLTMLQSQVPNIVKALHKQMKEKSVKTRQCCFNMLTELVNVLPGALTQHIPVLVPGIIFSLNDKSSSSNLKIDALSCLYVILCNHSPQVFHPHVQALVPPVVACVGDPFYKITSEALLVTQQLVKVIRPLDQPSSFDATPYIKDLFTCTIKRLKAADIDQEVKERAISCMGQIICNLGDNLGSDLPNTLQIFLERLKNEITRLTTVKALTLIAGSPLKIDLRPVLGEGVPILASFLRKNQRALKLGTLSALDILIKNYSDSLTAAMIDAVLDELPPLISESDMHVSQMAISFLTTLAKVYPSSLSKISGSILNELIGLVRSPLLQGGALSAMLDFFQALVVTGTNNLGYMDLLRMLTGPVYSQSTALTHKQSYYSIAKCVAALTRACPKEGPAVVGQFIQDVKNSRSTDSIRLLALLSLGEVGHHIDLSGQLELKSVILEAFSSPSEEVKSAASYALGSISVGNLPEYLPFVLQEITSQPKRQYLLLHSLKEIISSASVVGLKPYVENIWALLLKHCECAEEGTRNVVAECLGKLTLIDPETLLPRLKGYLISGSSYARSSVVTAVKFTISDHPQPIDPLLKNCIGDFLKTLEDPDLNVRRVALVTFNSAAHNKPSLIRDLLDTVLPHLYNETKVRKELIREVEMGPFKHTVDDGLDIRKAAFECMYTLLDSCLDRLDIFEFLNHVEDGLKDHYDIKMLTFLMLVRLSTLCPSAVLQRLDRLVEPLRATCTTKVKANSVKQEFEKQDELKRSAMRAVAALLTIPEAEKSPLMSEFQSQISSNPELAAIFESIQKDSSSTNLESMDTS |  | 1.354
7 | Q9UK58 1xPhospho [S352(100)] (protein, UniProt Q9UK58 1-526, looked up, phosphorylated S352) Cyclin-L1: MASGPHSTATAAAAASSAAPSAGGSSSGTTTTTTTTTGGILIGDRLYSEVSLTIDHSLIPEERLSPTPSMQDGLDLPSETDLRILGCELIQAAGILLRLPQVAMATGQVLFHRFFYSKSFVKHSFEIVAMACINLASKIEEAPRRIRDVINVFHHLRQLRGKRTPSPLILDQNYINTKNQVIKAERRVLKELGFCVHVKHPHKIIVMYLQVLECERNQTLVQTAWNYMNDSLRTNVFVRFQPETIACACIYLAARALQIPLPTRPHWFLLFGTTEEEIQEICIETLRLYTRKKPNYELLEKEVEKRKVALQEAKLKAKGLNPDGTPALSTLGGFSPASKPSSPREVKAEEKSPISINVKTVKKEPEDRQQASKSPYNGVRKDSKRSRNSRSASRSRSRTRSRSRSHTPRRHYNNRRSRSGTYSSRSRSRSRSHSESPRRHHNHGSPHLKAKHTRDDLKSSNRHGHKRKKSRSRSQSKSRDHSDAAKKHRHERGHHRDRRERSRSFERSHKSKHHGGSRSGHGRHRR |  | 1.417
